Test [1] addresses M2 protein expressed on A/PR/8/34 infected MDCK cells (influenza A virus A/PR/8/34, UniProt P06821 1-97). In words: cell-based or functional assay.
The target of a further test is M2P peptide (influenza A virus). In words: peptide ELISA, grade relative to wild-type M2.
For a further test, the target named is M2K peptide (influenza A virus).
Test [2] concerns the target T1, M2 protein expressed on A/HK/1/68 infected MDCK cells (influenza A virus A/HK/1/68).
T1 construct: whole, on cells
In words: cell-based ELISA, half-saturating antibody concentration.

B1: human anti-M2 monoclonal antibody C40G1 (antibody, V domains shown)
VH: QLQLQESGPGLVKPSETLSLTCTVSGGSISSSFYYCGWIRQPPGKGLEWIGSIYYRGSTYYNPSLKSRVTISVDTSKNQFSLKLSSVTAADTAVYYCARRVTMVRGVKGDYFDYWGQGTLVTVSS
VL: DIQMTQSPSSLSASVGDRVTITCRASQGISSWLAWYQQKPEKVPKSLIYAASSLQSGVPSRFSGSGSGTDFTLTISSLQPEDFATYYCQQYNYYPLTFGGGTKVEIKR
For the molecule B1, in test [1], the “ADCC: lysis of A/PR/8/34 infected MDCK cells, antibody 5 ug/mL, […] cells” value (shortened to “ADCC: lysis”) is about 50%.

B2: human anti-M2 monoclonal antibody L66 (antibody, V domains shown)
VH: EVQLVESGGGVVRPGGSLRLSCAASGFTFDDYGMSWVRQAPGKGLEWVSGINWNGGSTGYADSVKGRFTISRDNAKNSLYLQMNSLRAEDTALYYCARDRVTMVRGVIMDYYGMDVWGQGTTVTVSS
VL: QTVVTQEPSLTVSPRGTVTLTCSSSTGAVTSGYYPGWFQLKPGQAPMSLIYSARKKHSWTPARFSGSLLGGKAALTLSGVQPEDEAEYYCLLYYGGAYVFGTGTKVTVLG
Turning to B2, the “ADCC: lysis” value in test [1] is about 50%.

B3: human anti-M2 monoclonal antibody no. Z3G1 (recombinant IgG1 type Z3, CHO; ATCC PTA-5967) (antibody, V domains shown)
VH: QVQLVQSGAEVKKPGASVKVSCKASGYTFTSYGISWVRQAPGQGLEWMGWISAYNGNTNYAQKLQGRVTMTTDTSTSTAYMELRSLRSDDTAVYYCARAAAGGYFQHWGQGTLVTVSS
VL: QSVLTQPPSASGTPGQRVTISCSGSNSNIGSKTVNWYQQLPGTAPKLLISSNNQRPSGVPDRFSGSKSGTSASLAISGLQSEDEADYYCAAWDDSLNGVVFGGGTKLTVLG
In the case of B3, the binding result in the test with M2P peptide and with M2K peptide was “binds” in each case. Moreover, the “ADCC: lysis” value in test [1] is about 50%. Further, the Kd in test [2] stood at 488 pM.

B4: human anti-M2 monoclonal antibody N547 (antibody, V domains shown)
VH: not shown
VL: QSVLTQPPSMSAAPGQKVTISCSGSSSNIGNNYISWYQQLPGTAPKVLIYDNNKRPSGIPDRFSGSKSGTSATLGITGLQTGDEADYYCGSWDSSLSAGVFGTGTKVTVLG
As to B4, the “ADCC: lysis” value in test [1] was about 50%.

The values are drawn from patent US20090196872A1 (KIRIN BEER, published 2009).
